# According to PMC9794196, “Lassa virus glycoprotein nanoparticles elicit neutralizing antibody responses and protection” (2022):
# What was measured:
# [1] = molecular target: GPC-I53-50A (GPCysR4, Josiah strain, genetically fused to I53-50A.1NT1) (Lassa virus, Josiah strain) (UniProt P08669)
# [2] = molecular target: GPC-I53-50A (GPCysR4, Josiah strain, genetically fused to I53-50A.1NT1) (Lassa virus, Josiah strain) (UniProt P08669); remark: listed apart in the source
# [3] = molecular target: GPC-I53-dn5B (GPCysR4, Josiah strain, fused to the I53_dn5B scaffold) (Lassa virus, Josiah strain) (UniProt P08669)
substance,measurement,setting,value
"GPC-I53-50A (GPCysR4, Josiah strain, genetically fused to I53-50A.1NT1) (from UniProt P08669 1-424)",stoichiometry N,[1],3
same,stoichiometry N,[2],3
"GPC-I53-dn5B (GPCysR4, Josiah strain, fused to the I53_dn5B scaffold) (from UniProt P08669 1-424)",stoichiometry N,[3],3

# Like-named read-outs stand apart in the source and are kept apart here.
